Compound potency records, mixed from different reports. Data source: NIAID ChemDB in PubChem.

All rows: growth or infection tests; species: HIV-1

Neighbouring rows are from separate reports.

SMILES,conditions,cells,measure,read by,mutations,strain,value
CC(C)[C@H](NC(=O)[C@H](CCCN=C(N)N)NC(=O)N[C@@H](Cc1ccccc1)C(=O)O)C(=O)N[C@@H](C=O)Cc1ccccc1,,MT-4,EC50,cytopathic effect / MTT,,RF,0.048 µM
Nc1ccn([C@H]2CC[C@@H](CO)O2)c(=O)n1,clinical isolate,PBL,EC50,p24,,Clinical isolate,0.01 µM
CC(C)=CCC/C(C)=C/CN1CCc2cc(O)c(O)cc2[C@H]1Cc1ccc(O)c(O)c1,,H9,EC50,p24 / ELISA,,IIIB,>2.5 µg/mL
Cc1cn([C@@H]2O[C@H](CO[Si](C)(C)C(C)(C)C)[C@]3(C(N)=CS(=O)(=O)N3C)[C@H]2O[Si](C)(C)C(C)(C)C)c(=O)n(C)c1=O,,CEM,EC50,cytopathic effect,RT-E138K,,>250 µM
Nc1ccn([C@H]2CC[C@@H](CO)O2)c(=O)n1,,MT-2,EC50,,,RF,<0.1 µM
O=S(Cc1[nH]c2ccc(Cl)cc2c1Sc1ccccc1)c1ccccc1,,MT-4,EC95,p24 / ELISA,,IIIB,0.8 µM
CC(C)=CCC/C(C)=C/C[N@+]12CCc3cc(O)c(O)cc3[C@H]1Cc1ccc(O)c(O)c1C2,,H9,EC50,p24 / ELISA,,IIIB,>2.5 µg/mL
O=C(C1CSCN1)N1CCSC1,,CEM/MOLT-4,EC50,syncytia,,LAV,>1000 µM
CCC(Cl)C1(c2ccc(F)cc2)OC(=O)c2c(Br)c(Br)c(Br)c(Br)c21,,TZM-bl,EC50,luciferase,,IIIB,126 µM
CCc1c(Sc2ccc3ccccc3c2N)n(COCc2ccccc2)c(=O)[nH]c1=O,,MT-4,EC50,cytopathic effect / MTT,,IIIB,3.65 µM
CC(C)=CCC/C(C)=C/COc1cc2cc[n+](C)c(Cc3ccc(O)c(O)c3)c2cc1OC/C=C(\C)CCC=C(C)C,,H9,EC50,p24 / ELISA,,IIIB,>2.5 µg/mL
CC(C)=CCOc1cc(NC(=S)c2ccoc2C)ccc1Cl,,MT-4,EC50,cytopathic effect,RT-V106A P225H,Recombinant,0.517 µM
CC(C)(C)OC(=O)N[C@@H](Cc1ccccc1)[C@H](O)CNC[C@@H](O)[C@H](Cc1ccc(OCC(=O)N2CCOCC2)cc1)NC(=O)OC(C)(C)C,,MT-2,EC50,,,RF,0.4 µM
CO[C@H]1O[C@@H](n2ccc(=O)[nH]c2=O)C[C@@H]1N=[N+]=[N-],,MT-4,EC50,RT activity,,IIIB,0.6 µM
NC(=O)P(=O)(O)OC[C@H]1O[C@@H](n2ccc(=O)[nH]c2=O)[C@H](O)[C@@H]1O,,H9,EC50,p24,,,5.5 µM
NC(=O)c1[nH]c2ccc(Cl)cc2c1Sc1ccccc1,,MT-4,EC95,p24 / ELISA,,IIIB,0.2 µM
Cc1cn([C@H]2C=C[C@@H](CO)O2)c(=O)[nH]c1=O,,ATH8,EC50,cytopathic effect,,IIIB,<0.25 µg/mL
O=C(C1CCCN1C(=O)OCc1ccccc1)N1CCCCC1,,CEM/MOLT-4,EC50,syncytia,,LAV,>1000 µM
Cc1ccc(S(=O)(=O)n2cc(C(=O)/C=C3\OC(C)(C)OC3=O)c3cc(Br)ccc32)cc1,,TZM-bl,EC50,luciferase,,,0.15 µM
CCCCCCCCCCCCCCCCCC(=O)NCC(COP(=O)(O)O)OCC,,CEM + CEM-SS,EC50,plaque count,,IIIB,>100 µM
Cc1nc(CCCCCOCc2ccccc2)n2nc(Cl)ccc12,,MT-4,EC50,cytopathic effect,,RF,1.3 µM
CC1(C)C2=CC(=O)C(O)(c3ccccc3)C(=O)N2c2ccc(Cl)cc21,,MT-4,EC50,cytopathic effect / MTT,,RF,0.8 µM
CCc1c(C(=O)c2cc(C)cc(C)c2)n(CC2CC=CC2)c(=O)[nH]c1=O,clinical isolate,PBMC,EC50,cytopathic effect / XTT,,CLADE C,0.002 µM
CCC(=O)c1ccc(F)c([C@H]2C[C@H]2NC(=O)Nc2ccc(C#N)cn2)c1O,,PBMC,EC50,p24 / ELISA,,,<0.001 µM
Oc1ccc(CC2NCCc3cc(O)c(O)cc32)cc1O,,H9,EC50,p24 / ELISA,,IIIB,>2.5 µg/mL
CC(C)Nc1cccnc1N1CCN(C(=O)c2cc3cc(NS(C)(=O)=O)ccc3[nH]2)CC1,,MT-2,EC50,syncytia,,IIIB,0.01 µM
O=C1OC(C(Cl)c2ccccc2Br)c2ccccc21,,TZM-bl,EC50,luciferase,,IIIB,0.6 µM
COc1ccc(-c2c3c(cc4cc(OC)c(OC)cc24)CN(CC(C)C)C3)cc1OC,,U87 (CD4+ CCR5+) + U87,EC90,luciferase,,CONB/pNL43E-Luc+,2.76 µg/mL
Cc1nc(CCCCCCC(O)c2ccccc2)n2nc(-n3ccnc3)ccc12,,MT-4,EC50,,,RF,<0.03 µM
NC(=O)P(=O)(O)OC[C@H]1O[C@@H](n2ccc(N)nc2=O)[C@H](O)[C@@H]1O,,H9,EC50,p24,,,3 µM
Cc1cn([C@@H]2O[C@H](CO[Si](C)(C)C(C)(C)C)[C@]3(C(N)=CS(=O)(=O)N3C)[C@H]2O[Si](C)(C)C(C)(C)C)c(=O)n(C(=O)OC(C)(C)C)c1=O,,CEM,EC50,cytopathic effect,RT-K103N,,>10 µM
Cc1cn([C@H]2C[C@H](N=[N+]=[N-])[C@@H](CO)O2)c(=O)[nH]c1=O,,CEM + CEM TK-,EC50,MTT,,,>100 µM
C[C@@H]1[C@H](O)[C@@H](C)/C=C/C=C/CC/C=C/C=C/C=C/C=C/C(O[C@H]2O[C@H](C)[C@@H](O)[C@H](N)[C@@H]2O)CC2O[C@](O)(CC(O)C(O)CCC(O)CC(O)CC(O)CC(=O)O[C@H]1C)CC(O)C2C(=O)O,,H9,EC50,RT activity,,,<5 µg/mL
CC1(C)CC[C@]2(C(=O)O)CC[C@]3(CO)C(=CCC4[C@@]5(C)CC[C@H](O)C(C)(C)C5CC[C@]43C)C2C1,,H9,EC50,p24,,IIIB,4.4 µg/mL
CC(C)c1c(Sc2cccc3ccccc23)n(COCc2cccc(F)c2)c(=O)[nH]c1=O,,MT-4,EC50,cytopathic effect / MTT,,IIIB,0.11 µM
Cc1nc(CCCCCCC(=O)c2ccccc2)n2nc(N(C)C)ccc12,,MT-4,EC50,cytopathic effect,,RF,1.8 µM
Cc1cn([C@H]2C[C@H](N=[N+]=[N-])[C@@H](CO)O2)c(=O)[nH]c1=O,,CEM + CEM-SS,EC50,cytopathic effect / XTT,,SK1,0.0037 µM
O=c1[nH]cnc2c1ncn2[C@H]1CC[C@@H](CO)O1,,H9,EC50,syncytia,,IIIB,0.21 µM
NC(=O)c1[nH]c2ccc(Cl)cc2c1S(=O)(=O)c1ccccc1,,MT-4,EC50,p24 / ELISA,,IIIB,<0.003 µM
C[C@@H]1CC[C@]2(C(=O)O)CC[C@]3(C)C(=CCC4[C@]5(C)C(CC[C@]43C)C(C)(C)[C@@H](O)[C@H](O)[C@H]5O)C2[C@]1(C)O,,H9,EC50,p24,,IIIB,35 µg/mL
Cc1cn([C@H]2C[C@H](N=[N+]=[N-])[C@@H](CO)O2)c(=O)[nH]c1=O,,MT-4,EC50,RT activity,,SCV 4005,0.0084 µM
Cc1cn([C@H]2C[C@H](N=[N+]=[N-])[C@@H](CO)O2)c(=O)[nH]c1=O,,H9,EC50,p24,,IIIB,0.012 µg/mL
Cc1cccc(COCn2c(Sc3cccc4ccccc34)c(C(C)C)c(=O)[nH]c2=O)c1,,MT-4,EC50,cytopathic effect / MTT,,IIIB,0.25 µM
COC(=O)c1ccccc1C(=O)Nc1nnc(-c2ccc(OC)cc2)s1,,TZM-bl,EC50,luminescence,,NL4-3,10 µM
C[C@@H]1CC[C@]2(C(=O)O)CC[C@]3(C)C(=CCC4[C@@]5(C)C[C@@H](O)[C@H](O)C(C)(C)C5CC[C@]43C)C2[C@H]1C,,H9,EC50,p24,,IIIB,4 µg/mL
C[n+]1ccc2cc(O)c(O)cc2c1Cc1ccc(O)c(O)c1,,H9,EC50,p24 / ELISA,,IIIB,>2.5 µg/mL
O=C1OC(C(Cl)c2ccccc2)c2ccccc21,,TZM-bl,EC50,luciferase,,IIIB,30.9 µM
Nc1ccn([C@H]2CC[C@@H](CO)O2)c(=O)n1,,MT-4,EC50,MTT,,,1.2 µg/mL
CCc1c(Sc2ccc3ccccc3c2)n(COC)c(=O)[nH]c1=O,,MT-4,EC50,cytopathic effect / MTT,,IIIB,22.02 µM
O=C(O)P(=O)(O)O,,H9,EC50,RT activity,,,<50 µg/mL
Cc1cn([C@H]2C[C@H](N=[N+]=[N-])[C@@H](CO)O2)c(=O)[nH]c1=O,,MT-4,EC50,p24 / ELISA,,NL4-3,0.02 µM
Cc1cn([C@H]2C[C@H](N=[N+]=[N-])[C@@H](CO)O2)c(=O)[nH]c1=O,,PBMC,EC50,p24,,R041290,0.6 µM
Cc1nc(CCCCCCC(=O)c2ccccc2)n2nc(-n3cnnc3)ccc12,,MT-4,EC50,cytopathic effect,,RF,1.1 µM
CC(C)=CCN1Cc2c(F)ccc3[nH]c(=S)n(c23)C[C@@H]1C,,CEM,EC50,,,,0.0365 µM
COc1ccc2c(c1)N(C(=O)OC(C)C)[C@@H](CSC)C(=S)N2,,MT-4,EC50,cytopathic effect,,,0.001 µM
CC[C@H](C)C=C(C)/C=C/C1=CC2=C(Cl)C(=O)[C@]3(C)OC(=O)[C@@H](C(C)=O)[C@@H]3C2=CO1,,,EC50,ELISA,,,6.6 µM
O=C1O[C@@](CCl)(c2ccccc2)c2ccccc21,,TZM-bl,EC50,luciferase,,IIIB,1.2 µM
COc1cccc2c1N(C(=O)OC(C)C)C(CSC)C(=S)N2,,PBMC,EC50,cytopathic effect / XTT,,,0.004 µM
CCc1c(Sc2ccc3ccccc3c2[N+](=O)[O-])n(COC)c(=O)[nH]c1=O,,MT-4,EC50,cytopathic effect / MTT,,IIIB,0.47 µM
COCc1c(CNCC(C)C)cc2cc(OC)c(OC)cc2c1-c1ccc(OC)c(OC)c1,,U87 (CD4+ CCR5+) + U87,EC90,luciferase,,CONB/pNL43E-Luc+,4.38 µg/mL
Cc1ccc(C2(CCl)OC(=O)c3ccccc32)cc1,,TZM-bl,EC50,luciferase,,IIIB,47.6 µM
Cc1cn([C@H]2C[C@H](F)[C@@H](COP(=O)(O)O)O2)c(=S)[nH]c1=O,,CEM,EC50,syncytia,,,0.5 µM
COCn1c(Sc2cccc3ccccc23)c(C(C)C)c(=O)[nH]c1=O,,MT-4,EC50,cytopathic effect / MTT,,IIIB,0.51 µM
Cc1nc(CCCCCCC(=O)c2ccccc2)n2nc(Cl)ccc12,,MT-4,EC50,cytopathic effect,,RF,<0.03 µM
Cc1cn([C@H]2C[C@H](N=[N+]=[N-])[C@@H](CO)O2)c(=O)[nH]c1=O,,MT-2,EC50,syncytia,,,0.1 µM
CCOCn1c(Cc2ccccc2)c(C(C)C)c(=O)[nH]c1=O,,MT-4,EC50,cytopathic effect,RT-V106A,Recombinant,0.199 µM
COc1ccc(CN[C@@H](C(=O)N[C@H]2c3ccccc3C[C@H]2O)[C@H](O)[C@H](Cc2ccccc2)NC(=O)[C@@H](NC(=O)OCc2ccccc2)C(C)(C)C)cc1,,Primary monocytes + Monocyte,EC50,p24,,SF162,0.07 µM
C[C@@H]1CC[C@]2(C(=O)O)CC[C@]3(C)C(=CC[C@@H]4[C@@]5(C)CC[C@H](O)C(C)(C)[C@@H]5CC[C@]43C)[C@@H]2[C@]1(C)O,,H9,EC50,p24,,IIIB,1.4 µg/mL
CCc1nc(CCCCCCC(=O)c2ccccc2)n2nc(Cl)ccc12,,MT-4,EC50,cytopathic effect,,RF,>25 µM
COC(=O)c1[nH]c2ccc(Cl)cc2c1Sc1ccccc1,,MT-4,EC50,p24 / ELISA,,IIIB,<1.5 µM
CC1(C)CC[C@]2(C(=O)O)CC[C@]3(C)C(=CC[C@@H]4[C@@]5(C)CC[C@H](OC(=O)CC(C)(C)C(=O)O)C(C)(C)[C@@H]5CC[C@]43C)[C@@H]2C1,,H9,EC50,p24,,IIIB,0.0005 µg/mL
CN1[C@@H](c2cccc(Br)c2)c2ccccc2S1(=O)=O,,,EC50,,,,0.086 µM
CNC(=O)c1[nH]c2ccc(Cl)cc2c1Sc1ccccc1,,MT-4,EC95,p24 / ELISA,,IIIB,0.2 µM
CC(C)=CCN1Cc2cc(Cl)cc3[nH]c(=O)n(c23)C[C@@H]1C,,MT-4,EC50,cytopathic effect,RT-V106A P225H,Recombinant,5.1 µM
O=c1[nH]c2ccc(Cl)cc2n1Cc1c(F)cccc1F,,CEM,EC50,cytopathic effect,RT-L100I,,2 µM
CN1[C@@H](c2cccc(I)c2)c2ccccc2S1(=O)=O,,,EC50,,,,0.076 µM

ECn: concentration that inhibits the pathogen or its effect by n%. An empty or dashed field is not shown.